Measured values from several laboratories, pooled; numbers as filed in NIAID ChemDB.

Shared fields: growth or infection tests; agent: HIV-1; method: cytopathic effect / MTT; measure: EC50

Rows are shuffled and stem from different studies. An empty or dashed field is not shown. ECn is the concentration giving n% inhibition of infection, replication or growth.

compound,cell line,strain or isolate,changes,result
Cc1cc(C)cc(Cc2c(CC(C)C)c(C)[nH]c(=O)c2N(C)C)c1,MT-4,Recombinant,RT-Y181C,1.259 µM
O=C1c2ccccc2C(=O)N1CCOC(=S)N(C(=O)c1ccco1)c1ccc([N+](=O)[O-])cc1,C8166,IIIB,,<0.005 µM
CC(C)c1c(Sc2cccc3ccccc23)n(COCc2ccc(F)cc2)c(=O)[nH]c1=O,MT-4,IIIB,,0.067 µM
CN(C)C(=O)Oc1nsnc1-c1cc(Cl)ccc1Cl,MT-4,IIIB,,0.37 µM
O=[N+]([O-])c1ccc(/C=N/c2nccs2)cc1,MT-4,IIIB,,>63 µM
CC(C)(C)OC(=O)N[C@@H](Cc1ccccc1)[C@@H](O)C[C@@H](Cc1ccc(OCc2nn[nH]n2)cc1)C(=O)N[C@H]1c2ccccc2C[C@H]1O,MT-4,IIIB,,>10 µM
O=C1c2ccccc2C(=O)N1CCOC(=S)N(C(=O)c1ccco1)c1ccc(Cl)cc1,MT-4,N119 nevirapine-resistant (RT Y181C),RT-Y181C,>100 µM
CN(C)C(=O)Oc1nsnc1-c1ccccc1,MT-4,IIIB-R (RT-Y181C),RT-Y181C,>210 µM
Fc1ccc2nc3n(c2c1)C(c1c(F)cccc1Cl)SC3,MT-4,IIIB,,>28.2 µM
CC(C)(C)OC(=O)N[C@@H](Cc1ccccc1)[C@@H](O)C[C@@H](Cc1ccc(OCP(=O)(O)O)cc1)C(=O)N[C@H]1c2ccccc2C[C@H]1O,MT-4,IIIB,,0.16 µM
Cc1cn([C@H]2C[C@H](N=[N+]=[N-])[C@@H](CO)O2)c(=O)[nH]c1=O,MT-4,HE,,0.003 µM
CC(=O)Oc1ccc(/C=C/C(=O)O[C@H](C(=O)O)[C@H](OC(=O)/C=C/c2ccc(OC(C)=O)c(OC(C)=O)c2)C(=O)O)cc1OC(C)=O,MT-4,NL4-3,AMD2763-resistant,>93 µM
Fc1cccc(F)c1C1SCc2nc3ccccc3n21,MT-4,IIIB,,0.6 µM
Cc1cn([C@H]2C[C@H](N=[N+]=[N-])[C@@H](CO)O2)c(=O)[nH]c1=O,MT-4,IIIB,,0.01 µM
FC(F)(F)c1ccc2c(c1)nc1n2C(c2c(Cl)cccc2Cl)SC1,MT-4,IIIB,,>25.9 µM
CCCCCCN(C)C(=O)Oc1nsnc1-c1c(Cl)cccc1Cl,MT-4,IIIB-R (RT-Y181C),RT-Y181C,>19 µM
CSc1ccc2c(c1)N=C(N1CCN(C)CC1)c1ccccc1N2,CEM-T4 + CEM,IIIB,,>28 µg/mL
O=C1Nc2ccccc2Cn2ccnc21,MT-4,IIIB,,>300 µM
O=C(O)P(=O)(O)O,H9,IIIB,,<8 µM
Cc1cn([C@H]2C[C@H](N=[N+]=[N-])[C@@H](CO)O2)c(=O)[nH]c1=O,CEM + CEM-SS,MN,,0.002 µM
CC(C)C1C(=O)Nc2ccc(Cl)cc2CN1C(=O)OC(C)(C)C,MT-4,,,>100 µM
COc1ccc(/C=C/C(=O)/C=C/c2ccc(OC)c(OC)c2)cc1OC,MT-4,,,>4.1 µM
Cc1cccc2nc3n(c12)C(c1c(F)cccc1F)SC3,MT-4,IIIB,,3 µM
CCOC(=O)c1c[nH]cc1S(=O)(=O)c1cc(Cl)ccc1NCC=C(C)C,MT-4,IIIB,,>12 µM
CN1C(=O)c2cccn2S(=O)(=O)c2ccccc21,MT-4,IIIB,,10 µM
C[C@H]1C(=O)Nc2ccc(Cl)cc2CN1Cc1ccc[nH]1,MT-4,,,>100 µM
Cc1ccc2snc(N=Cc3cccc(Cl)c3)c2c1,MT-4,IIIB,,>7 µM
CC(C)=CCN1Cc2cc(Cl)cc3[nH]c(=S)n(c23)C(=O)C1C,MT-4,,,>50 µM
CN1CCN(C2=c3cc(O)ccc3=Nc3ccc(Cl)cc3N2O)CC1,MT-2,IIIB,,81 µg/mL
CC1(C)C2=CC(=O)C(c3ccccc3)([N+](=O)[O-])C(=O)N2c2ccc(Cl)cc21,MT-4,RF,,7.2 µM
CN(C)C(=O)Oc1nsnc1-c1ccccc1Cl,MT-4,IIIB,,0.44 µM
O=C(/C=C/c1ccc(O)c(O)c1)c1ccccc1,MT-4,,,>1.7 µM
CC1(C)C2=CC(=O)C(O)(c3ccccc3)C(=O)N2c2ccc(Cl)cc21,MT-4,RF,,0.8 µM
CC(C)=CCn1cc2c(c1)S(=O)(=O)c1cc(Cl)ccc1NC2=S,MT-4,Clinical isolate,RT-Y181C,≥30 µM
CCOC(=O)C1Nc2ccccc2Sn2cccc21,MT-4,IIIB,,>10 µM
CSc1ccc2c(c1)N=C(N1CCNCC1)c1ccccc1N2,MT-2,IIIB,,>17 µg/mL
O=S1(=O)c2ccccc2N=Cc2cccn21,MT-4,IIIB,,>46 µM
Fc1ccc2c(c1)nc1n2C(c2c(F)cccc2F)SC1,MT-4,IIIB,,5.2 µM
Cc1cccc(COCn2c(Sc3cccc4ccccc34)c(C(C)C)c(=O)[nH]c2=O)c1,MT-4,IIIB,,0.25 µM
CCN1C(=O)c2cn(C)cc2S(=O)(=O)c2cc(Cl)ccc21,MT-4,IIIB,,22 µM
C=C(C)CN1Cc2cc(Cl)ccc2NC(=O)[C@@H]1C,MT-4,,,>100 µM
CC(=O)OCOP(=O)(OCOC(C)=O)C(=O)Oc1ccccc1,H9,IIIB,,>150 µM
COc1cc(/C=C2\CCC/C(=C\c3ccc(O)c(OC)c3)C2=O)ccc1O,MT-4,,,>2.4 µM
COc1ccc2nc3n(c2c1)C(c1c(F)cccc1Cl)SC3,MT-4,IIIB,,>373 µM
CC1C(=O)Nc2ccccc2CN1CC1CCC1,MT-4,,,238 µM
CC(=O)O[C@@]12C[C@@H](C)[C@@]3(O)[C@@H](C=C(CO)C[C@]4(O)C(=O)C(C)=C[C@@H]34)[C@@H]1C2(C)C,MT-4,L1 Clinical isolate,,0.04 µg/mL
c1ccc2c(c1)Cn1ccnc1-c1nnc(-c3ccncc3)n1-2,MT-4,IIIB,,>300 µM
O=[N+]([O-])c1cccc(/C=N/c2nc3ccccc3s2)c1,MT-4,IIIB,,>60 µM
Cc1c(Sc2ccccc2)n(COCCO)c(=O)[nH]c1=O,MT-4,IIIB,,5.06 µM
CCOCn1c(Cc2ccccc2)c(C(C)C)c(=O)[nH]c1=O,MT-4,IIIB,,0.01 µM
CCOCn1c(Sc2ccc3ccccc3c2)c(CC)c(=O)[nH]c1=O,MT-4,IIIB,,3.37 µM
CCC(=CCN1Cc2c(Cl)cccc2NC(=O)C1C)CC,MT-4,,,5.6 µM
CCN(C)C(=O)Oc1nsnc1-c1c(Cl)cccc1Cl,MT-4,IIIB-R (RT-Y181C),RT-Y181C,5.6 µM
CC(C)NC(=O)N1Cc2cc(Cl)ccc2NC(=O)[C@@H]1C,MT-4,,,>619 µM
O=C1c2ccccc2C(=O)N1CCOC(=S)N(C(=O)c1ccc(Cl)cc1)c1ccc(Cl)cc1,MT-4,IIIB,RT-K103R V179D P225H,>100 µM
CC(C)=CCn1cc2c(c1)S(=O)(=O)c1cc(Cl)ccc1NC2=O,MT-4,Clinical isolate,RT-Y181C,≥30 µM
COc1ccc(/C=N/c2nccs2)cc1,MT-4,IIIB,,>100 µM
S=C(NCCc1ccccn1)Nc1ccc(Br)cn1,MT-4,N119 nevirapine-resistant (RT Y181C),RT-Y181C,>100 µM
CCc1c(Sc2cccc3ccccc23)n(COCc2ccccc2)c(=O)[nH]c1=O,MT-4,IIIB,,0.048 µM
O=C(c1ccccc1)c1ccc2c(c1)nc1n2C(c2c(Cl)cccc2Cl)SC1,MT-4,IIIB,,>28.3 µM
CC(C)C1NCc2cc(Cl)ccc2NC1=S,MT-4,,,>100 µM
CC(C)=CCN1C(=O)c2cccn2S(=O)(=O)c2ccccc21,MT-4,IIIB,,>41 µM
CCOCn1c(Sc2ccc3ccccc3c2)c(C(C)C)c(=O)[nH]c1=O,MT-4,IIIB,,2.65 µM
COCCN1C(=O)c2cccn2S(=O)(=O)c2ccccc21,MT-4,IIIB,,51 µM
Cc1ccnc2c1NC(=O)c1cccnc1N2C1CC1,MT-4,LAI,,0.032 µM
O=c1[nH]cnc2c1ncn2[C@H]1CC[C@@H](CO)O1,MT-2,IIIB,,9.1 µM
CCOC(=O)COc1ccc(C[C@H](C[C@H](O)[C@H](Cc2ccccc2)NC(=O)OC(C)(C)C)C(=O)N[C@H]2c3ccccc3C[C@H]2O)cc1,MT-4,IIIB,,0.16 µM
CN(C)C(=O)Oc1nsnc1-c1ccc(Cl)cc1,MT-4,IIIB-R (RT-Y181C),RT-Y181C,>353 µM
CCOC(=O)c1cn(CC=C(C)C)cc1S(=O)(=O)c1cc(Cl)ccc1NCC=C(C)C,MT-4,IIIB,,>200 µM
O=C1/C(=C/c2ccc(O)c(O)c2)COC/C1=C\c1ccc(O)c(O)c1,MT-4,,,>10 µM
Nc1nc(NC2CC2)c2ncn([C@H]3C=C[C@@H](CO)O3)c2n1,PBMC,BRU PITT.(RT-M184V),RT-M184V,2.2 µM
O=c1[nH]cnc2c1ncn2[C@H]1CC[C@@H](CO)O1,MT-4,IIIB,,35.9 µM
CC1(C)C2=CC(=O)C(O)(c3ccccc3)C(=O)N2c2ccccc21,MT-4,RF,,>100 µM
Cc1cccc2c1nc1n2C(c2c(F)cccc2F)SC1,MT-4,IIIB,,3 µM
O=C1/C(=C/c2ccc(O)c(O)c2)Cc2ccccc21,MT-4,,,>5.5 µM
CN(C)CCCN1c2ccccc2Sc2ccc(Cl)cc21,MT-2,IIIB,,>5.3 µg/mL

Repeating the final 5 entries:

compound	cell line	strain or isolate	changes	result
O=c1[nH]cnc2c1ncn2[C@H]1CC[C@@H](CO)O1	MT-4	IIIB		35.9 µM
CC1(C)C2=CC(=O)C(O)(c3ccccc3)C(=O)N2c2ccccc21	MT-4	RF		>100 µM
Cc1cccc2c1nc1n2C(c2c(F)cccc2F)SC1	MT-4	IIIB		3 µM
O=C1/C(=C/c2ccc(O)c(O)c2)Cc2ccccc21	MT-4			>5.5 µM
CN(C)CCCN1c2ccccc2Sc2ccc(Cl)cc21	MT-2	IIIB		>5.3 µg/mL